Measurements: publication PMC5678585, “Screening a protein kinase inhibitor library against Plasmodium falciparum” (Malaria Journal, 2017)

Test system: Plasmodium falciparum 3D7
Conditions: ratio of EC50 SYBR Green vs [3H]-hypoxanthine
Experimental: Growth inhibition was quantified using a fluorescence assay utilizing the binding of SYBR Green I to double stranded DNA, which emits a fluorescent signal at 528 nm after excitation at 485 nm. The SYBR Green assay system was adapted to maximize robustness and to align with available automation systems. The Prestwick Library then used as a pilot screen to validate the performance of the optimized assay. […] Single point screens were carried out, and the potency of compounds of interest was determined in duplicate on two independent occasions. A 96-well [^3H]-Hypoxanthine incorporation assay was also developed as a secondary assay in order to validate key compounds from each hit series in an orthogonal platform.
All data were processed using IDBS ActivityBase. […] The formula used to calculate Z’ is 1-3×(StDev_high+StDev_low)/ABS(Mean_high-Mean_low) .
Two independent assays were run.

Structure (SMILES)	Ratio fluorescent vs radiometric
Fc1ccc(-c2cc(Nc3ccncc3)nc(-c3ccccc3)n2)cc1 [Compound A0002]	4
O=C(Nc1cccnc1)c1cn(-c2ccccc2)nc1-c1cccs1 [Compound A0003]	4
O=C(Nc1cccnc1)c1cc(-c2cccnc2)nc2ccc(Br)cc12 [Compound A0004]	2
